Assay results taken from ChEMBL document CHEMBL1955767, “Synthesis and biological evaluation of piperidine-substituted triazine derivatives as HIV-1 non-nucleoside reverse transcriptase inhibitors” (Eur J Med Chem, 2012).

Target: Human immunodeficiency virus type 1 reverse transcriptase (Human immunodeficiency virus 1, UniProt Q72547)
Assay: Inhibition of HIV1 reverse transcriptase assessed as incorporation of biotin-dUTP into poly(rA)-oligo(dT)
Summary of the method: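 ELISA-format RT kit with a poly(rA)-oligo(dT) homopolymer template/primer bound to the plate. Wild-type HIV-1 RT activity measured as biotin-dUTP incorporation into the template.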

**Q.** Cc1cc(C#N)cc(C)c1Oc1nc(Nc2ccc(C#N)cc2)nc(N)c1Br [ETRAVIRINE] was tested. Which IC50 did it give?
**A.** 0.55 µM
